Anti-infective test results gathered from many reports (values: NIAID ChemDB through PubChem).

Common to all: whole-cell or culture tests; organism: Rhinovirus; method: cytopathic effect; measure: EC50

Lines come from different laboratories, so protocols vary. ECn is the concentration giving n% inhibition of infection, replication or growth.

CS(=O)(=O)c1ccc(NCc2ccc(Br)cc2)nc1 ; cell line: HeLa ; strain or isolate: TYPE 2 ; value: 6.3 µg/mL
Cc1nc(-c2cc(C)c(OCCCc3ccc(C(F)F)o3)c(C)c2)no1 ; cell line: HeLa ; strain or isolate: serotypes 3 4 5 9 16 18 38 66 75 67 ; value: 0.659 µg/mL
Cc1ccc(-n2c(-c3ccccc3)c(C)c(=O)c3cc(C(C)C)ccc32)cc1 ; cell line: HELA-OHIO ; strain or isolate: TYPE 1B/B632 ; value: >2.5 µg/mL
CCOc1ccc(-c2onc(N(CC)CC)c2Cc2c(N(CC)CC)noc2-c2ccc(O)cc2O)c(O)c1 ; cell line: HeLa ; strain or isolate: Serotype 14 ; value: >17 µM
CCS(=O)(=O)c1cccnc1Oc1ccc(C(=O)c2ccccc2)cc1 ; cell line: HeLa ; strain or isolate: TYPE 64 ; value: >10 µg/mL
CC(=O)c1ccc(CCCOc2cc(C)c(-c3noc(C(F)F)n3)c(C)c2)nn1 ; cell line: HeLa ; strain or isolate: serotypes 3 4 5 9 16 18 38 66 75 67 ; value: 0.04 µg/mL
Cc1c(-c2ccccc2)n(-c2ccc(F)cc2)c2ccc(C(C)C)cc2c1=O ; cell line: HELA-OHIO ; strain or isolate: TYPE 89 ; value: 0.011 µg/mL
CS(=O)(=O)c1ccc(NCc2ccc(Cl)c(Cl)c2)nc1 ; cell line: HeLa ; strain or isolate: TYPE 29 ; value: 1.3 µg/mL
CCN(CC)c1cc(-c2ccc(OC)cc2OC)on1 ; cell line: HeLa ; strain or isolate: Serotype 42 (group A) ; value: >362 µM
CS(=O)(=O)c1ccc(Oc2ccc(C(=O)c3ccccc3)cc2)nc1 ; cell line: HeLa ; strain or isolate: TYPE 5 ; value: 10 µg/mL
CCOc1nc2ccc(OCCC3CCN(c4ccc(C)nn4)CC3)cc2s1 ; cell line: MRC-5 ; strain or isolate: Serotype 2 ; value: 0.007 µg/mL
CS(=O)c1ccc(Cc2ccc(S(C)(=O)=O)cn2)cc1 ; cell line: HeLa ; strain or isolate: TYPE 1A ; value: >10 µg/mL
Cc1c(-c2ccccc2)n(-c2cccc(F)c2)c2ccc(C(C)C)cc2c1=O ; cell line: HELA-OHIO ; strain or isolate: 10/204-CV14 ; value: 0.013 µg/mL
COc1ccc(-c2cc(N3CCCC3)no2)c(O)c1 ; cell line: HeLa ; strain or isolate: Serotype 63 (group B) ; value: >384 µM
CS(=O)(=O)c1ccc(Cc2ccc(N)cc2)nc1 ; cell line: HeLa ; strain or isolate: TYPE 1A ; value: >10 µg/mL
CSc1nsc(-c2ccc(OCCOc3ccc(C#N)cc3)cc2)c1C#N ; cell line: HELA-OHIO ; strain or isolate: Serotype 63 (group B) ; value: >2 µM
CCOc1nc2cc(OCCC3CCN(c4ccc(C)nn4)CC3)ccc2s1 ; cell line: MRC-5 ; strain or isolate: Serotype 14 ; value: 0.014 µg/mL
CCOC(=O)c1ccc(OCCC2CCN(c3ccc(C)nn3)CC2)cc1 ; cell line: WI-38 ; strain or isolate: Serotype 39 ; value: <0.1 µg/mL
CSc1nsc(-c2ccc(OCCCOc3ccccc3)cc2)c1C#N ; cell line: HELA-OHIO ; strain or isolate: Serotype 45 (group A) ; value: >20 µM
C#CCOc1cc(OC)ccc1-c1cc(N(CC)CC)no1 ; cell line: HeLa ; strain or isolate: Serotype 86 (group A) ; value: >40 µM
CCOc1nc2ccc(OCCC3CCN(c4cc(C)cnn4)CC3)cc2o1 ; cell line: MRC-5 ; strain or isolate: Serotype 2 ; value: 0.167 µg/mL
CSc1nsc(-c2ccc(OCCCCOc3ccc(C#N)cc3)cc2)c1C#N ; cell line: HELA-OHIO ; strain or isolate: Serotype 2 (group B) ; value: >2 µM
CSc1nsc(-c2ccc(OCc3ccccc3)cc2)c1C#N ; cell line: HELA-OHIO ; strain or isolate: Serotype 45 (group A) ; value: >50 µM
COCc1cc(CCCOc2c(Cl)cc(-c3noc(C)n3)cc2Cl)on1 ; cell line: HeLa ; strain or isolate: Serotype 89 ; value: 0.005 µg/mL
CCOc1noc2cc(OCCC3CCN(c4ccc(C)nn4)CC3)ccc12 ; cell line: MRC-5 ; strain or isolate: Serotype 14 ; value: 0.005 µg/mL
COCc1ccc(CCCOc2c(C)cc(-c3noc(C(F)F)n3)cc2C)nn1 ; cell line: HeLa ; strain or isolate: serotypes 3 4 5 9 16 18 38 66 75 67 ; value: 0.078 µg/mL
CSc1nsc(-c2ccc(OCCc3ccccc3)cc2)c1C#N ; cell line: HELA-OHIO ; strain or isolate: Serotype 41 (group B) ; value: >20 µM
N#Cc1cccnc1Oc1ccc(C(=O)c2ccccc2)cc1 ; cell line: HeLa ; strain or isolate: TYPE 64 ; value: >10 µg/mL
COCc1ccc(CCCOc2cc(C)c(-c3noc(C)n3)c(C)c2)nn1 ; cell line: HeLa ; strain or isolate: serotypes 3 4 5 9 16 18 38 66 75 67 ; value: 0.15 µg/mL
CCn1c2c(c(=O)c3cc(C(C)C)ccc31)Cc1ccccc1-2 ; cell line: HELA-OHIO ; strain or isolate: 13/353 ; value: 0.17 µg/mL
CCOc1nc2ccc(OCCCCCc3cc(C)no3)cc2o1 ; cell line: MRC-5 ; strain or isolate: Serotype 14 ; value: 0.118 µg/mL
CS(=O)(=O)c1ccc(Cc2ccc(Cl)c(Cl)c2)nc1 ; cell line: HeLa ; strain or isolate: TYPE 68 ; value: >10 µg/mL
CCOc1cc(OC)ccc1-c1cc(N(CC)CC)no1 ; cell line: HeLa ; strain or isolate: Serotype 42 (group A) ; value: >90 µM
CSc1nsc(-c2ccc(OS(=O)(=O)c3ccc(C)cc3)cc2)c1C#N ; cell line: HELA-OHIO ; strain or isolate: Serotype 70 (group A) ; value: >25 µM
CS(=O)(=O)c1ccc(NCCc2ccc(Cl)c(Cl)c2)nc1 ; cell line: HeLa ; strain or isolate: TYPE 1A ; value: <1.3 µg/mL
CCOC(=O)c1ccc(OCCC2CCN(c3ccc(C)nn3)CC2)cc1 ; cell line: HELA-OHIO ; strain or isolate: Serotype 29 (group B) ; value: 0.02 µM
Cc1nc(-c2cc(C)c(OCCCc3cc(C4CC4)no3)c(C)c2)no1 ; cell line: HeLa ; strain or isolate: Serotype 1A ; value: 0.034 µg/mL
CCOc1cnc2ccc(OCCC3CCN(c4ccc(C)nn4)CC3)cc2n1 ; cell line: MRC-5 ; strain or isolate: Serotype 2 ; value: 0.084 µg/mL
CCOc1cc(CCCOc2c(C)cc(-c3noc(C)n3)cc2C)on1 ; cell line: HeLa ; strain or isolate: Serotype 2 ; value: 0.005 µg/mL
CCOC(=O)c1ccc(OCCCOc2ccc(-c3snc(SC)c3C#N)cc2)cc1 ; cell line: HELA-OHIO ; strain or isolate: Serotype 70 (group A) ; value: 0.5 µM
COc1ccc(-c2snc(SC)c2C#N)cc1 ; cell line: HELA-OHIO ; strain or isolate: Serotype 42 (group A) ; value: >12 µM

Repeating the final 6 entries:

smiles,cell line,strain or isolate,value
CCOC(=O)c1ccc(OCCC2CCN(c3ccc(C)nn3)CC2)cc1,HELA-OHIO,Serotype 29 (group B),0.02 µM
Cc1nc(-c2cc(C)c(OCCCc3cc(C4CC4)no3)c(C)c2)no1,HeLa,Serotype 1A,0.034 µg/mL
CCOc1cnc2ccc(OCCC3CCN(c4ccc(C)nn4)CC3)cc2n1,MRC-5,Serotype 2,0.084 µg/mL
CCOc1cc(CCCOc2c(C)cc(-c3noc(C)n3)cc2C)on1,HeLa,Serotype 2,0.005 µg/mL
CCOC(=O)c1ccc(OCCCOc2ccc(-c3snc(SC)c3C#N)cc2)cc1,HELA-OHIO,Serotype 70 (group A),0.5 µM
COc1ccc(-c2snc(SC)c2C#N)cc1,HELA-OHIO,Serotype 42 (group A),>12 µM